Reference: paper PMC9917862 (International Journal of Molecular Sciences, 2023)

How the values were obtained:
[1] = system: α1-acid glycoprotein (AGP); assay: Direct fluorescence anisotropy of FAVI without and with AGP; assay type: binding, human
[2] = Ultrafiltration of the compounds in PBS without protein (filter adhesion); settings: 50 μM in PBS pH 7.40, 10 kDa filter, no protein

Row | Compound | fluorescence anisotropy r of free FAVI ([1]; absence of AGP) | fluorescence anisotropy r of FAVI with AGP ([1]; presence of 10 equiv. AGP) | recovered after filtration [2]
1 | NC(=O)c1nc(F)c[nH]c1=O [FAVI, favipiravir] | 1.8 × 10^−3 ± 4 × 10^−4 | 2.5 × 10^−3 ± 5 × 10^−4 | 100%
2 | CC(C)C(=O)OC[C@H]1O[C@@H](n2ccc(NO)nc2=O)[C@H](O)[C@@H]1O [MOLNU, molnupiravir] | – | – | 78%
